The record followed here is paper PMC5741678, “Specificity Characterization of SLA Class I Molecules Binding to Swine-Origin Viral Cytotoxic T Lymphocyte Epitope Peptides in Vitro” (2017).

What all share (experiment): ELISA
Common to all, as to conditions: for response (relative OD value): read off a plot
On the technique in general: ELISA stands for enzyme-linked immunosorbent assay.

In test [1] the target is PRRSV N-15 epitope peptide (…).
Test [2] deals with PRRSV G9 epitope peptide (…).
Test [3] has as its target PRRSV GP4-5 epitope peptide (…).
Test [4] addresses PRRSV N-6 epitope peptide (…).

For the substance “SLA-1*13:01-β2m single-chain protein (from UniProt Q07717) N151D; V152E”, the percent of parent stood at 39.9% in test [1] (parent: 100), 16.9% in test [2] (parent: 100), 23.9% in test [3] (parent: 100) and 16.8% in test [4] (parent: 100). Moreover, the response (relative OD value) was determined as 1.1 in test [1] (parent: est. 2.7), 0.72 in test [2] (parent: est. 4.3), 1.1 in test [3] (parent: est. 4.5) and 0.78 in test [4] (parent: est. 4.6).

“SLA-1*04:01:01-β2m single-chain protein (extracellular part of SLA-1*04:01:01, (G4S)3 linker, mature β2m, His-tag) (from UniProt Q07717) D151N; E152V”: the other: Relative level (% of SLA-1*13:01 binding) came out at 84% in test [1] (parent: 39.02), 57.8% in test [2] (parent: 27.78), 103% in test [3] (parent: 25.59) and 78.6% in test [4] (parent: 23.03). In addition, the response (relative OD value) in test [1] (parent: est. 1.1) is 2.3; in test [2] (parent: est. 1.2), 2.5; in test [3] (parent: est. 1.1), 4.6; in test [4] (parent: est. 1.1), 3.6.
